One assay relates to ID8 ovarian cancer cells. As to the kind of experiment: Ovarian cancer cell viability assay (MTT). Particulars: for Cell inhibitory rate on ID8 cells: 10 µM peptide, 72 h treatment; for IC50: read-out: IC50 against ID8 cells, 72 h treatment, three independent experiments.
A further assay relates to Nav1.4. In words: Whole-cell patch clamp recording, blockage of voltage-gated sodium channel Nav1.4.
Setting [1] is: read-out: Current inhibition at TP1 on Nav1.4, complete resting state (TP1), peptide 10 µM, CHO cells, mean and standard deviation of three parallel experiments.
Setting [2] is: read-out: Current inhibition at TP2 on Nav1.4, semi-activated state (TP2), peptide 10 µM, CHO cells, mean and standard deviation of three parallel experiments.

As a reminder, the IC50 is the concentration that gives 50% inhibition. As usually defined, the inhibition is the change of the read-out against control, counted positive when it falls.

Like-named read-outs stand apart in the source and are kept apart here.

In the case of `CC[C@H](C)[C@@H]1NC(=O)[C@H](CCC(N)=O)NC(=O)CNC(=O)[C@H]([C@@H](C)O)NC(=O)CNC(=O)CNC(=O)[C@@H]2CSSC[C@H](NC(=O)[C@H](CCC(=O)O)NC(=O)[C@H](CC(N)=O)NC(=O)[C@H](CCCCNC(C)=O)NC(=O)[C@H]([C@@H](C)CC)NC1=O)C(=O)N[C@@H](CCCCN)C(=O)N[C@@H]([C@@H](C)O)C(=O)N[C@H](C(=O)N[C@@H](Cc1c[nH]cn1)C(=O)NCC(=O)N[C@@H](CCCCN)C(=O)N[C@@H](CCCCNC(C)=O)C(=O)N[C@H](C(=O)N[C@H](C(=O)N[C@@H](CCCCN)C(=O)O)[C@@H](C)O)C(C)C)CSSC[C@H](NC(=O)[C@H](CCSC)NC(=O)[C@H](CCC(N)=O)NC(=O)[C@@H](N)CCC(N)=O)C(=O)NCC(=O)N[C@@H](CCCNC(=N)N)C(=O)N2`, in the assay on ID8 ovarian cancer cells, the “Cell inhibitory rate on ID8 cells” value is 19.39% and the IC50 turned out to be 112 µM.
Take `CC(C)[C@@H]1NC(=O)[C@H](CC(=O)O)NC(=O)[C@H](Cc2c[nH]c3ccccc23)NC(=O)[C@H](CO)NC(=O)[C@@H]2CSSC[C@@H](C(=O)NCC(=O)O)NC(=O)[C@@H]3CSSC[C@H](NC(=O)[C@H](CO)NC(=O)[C@@H]4CCCN4C(=O)[C@H](Cc4c[nH]cn4)NC(=O)[C@H](CC(=O)O)NC(=O)[C@H](CSSC[C@H](N)C(=O)N2)NC1=O)C(=O)N[C@@H]([C@@H](C)O)C(=O)N3`: in the assay on ID8 ovarian cancer cells, the “Cell inhibitory rate on ID8 cells” value amounted to 45.08%. Also, the IC50 in the assay with ID8 ovarian cancer cells came to 24.3 µM. The results for the inhibition with Nav1.4 (setting [1]) and in the assay with Nav1.4 (setting [2]) were 3.17% and 24.3%, respectively.
With `CC(C)C[C@@H]1NC(=O)[C@H](Cc2c[nH]cn2)NC(=O)[C@H](CC(=O)O)NC(=O)[C@@H]2CSSC[C@H](NC1=O)C(=O)N[C@@H](CO)C(=O)N[C@H]1CSSC[C@H](N)C(=O)N[C@@H](CSSC[C@@H](C(=O)NCC(=O)N[C@@H](CO)C(=O)O)NC1=O)C(=O)N[C@@H](Cc1c[nH]cn1)C(=O)N[C@@H](Cc1c[nH]c3ccccc13)C(=O)N[C@@H](CC(N)=O)C(=O)N[C@@H](Cc1c[nH]c3ccccc13)C(=O)N2`, in the assay with ID8 ovarian cancer cells, the “Cell inhibitory rate on ID8 cells” value worked out at 23.79% and the IC50 is 55 µM. Besides, in the assay with Nav1.4 (setting [1]), the inhibition was found to be 4.62%. Also, in the assay on Nav1.4 (setting [2]), the inhibition is 23.6%.

Values taken from paper PMC9573077, “Anti-Ovarian Cancer Conotoxins Identified from Conus Venom” (2022).
